A mixed list of measured activities; the numbers were collected in NIAID ChemDB.

Shared fields: host cell toxicity; read-out: CC50

Lines come from different laboratories, so protocols vary. CCn is the concentration with n% toxicity to the cells.

{"smiles": "COC(=O)N[C@H](C(=O)N[C@H](CCC[C@@H](CO)N(CCC(C)C)S(=O)(=O)c1ccc(CO)cc1)C1CC1)C(c1ccc(F)cc1)c1ccc(F)cc1", "cells": "T lymphoid cells", "method": "microscopy", "value": ">10 µM"}
{"smiles": "O=C1N=C(N2CCOCC2)S/C1=C\\c1ccc(-c2ccc(C(=O)O)c(O)c2)o1", "cells": "HT-29", "method": "MTT", "value": "2.3 µM"}
{"smiles": "CCO/C=N\\C1=C(C#N)C2=C(CCC/C2=C\\c2ccncc2)C(c2ccncc2)S1", "cells": "CNE-2", "method": "MTT", "value": "49.4 µM"}
{"smiles": "NC(=S)Nc1cccc(OCCCCCOc2ccnc3ccccc23)c1", "cells": "Ava5-EG(delta4AB)SEAP", "method": "MTS", "value": ">1 µM"}
{"smiles": "Nc1ccn(-c2ncc(F)c3c(C(=O)C(=O)N4CCN(C(=O)c5ccccc5)CC4)c[nH]c23)n1", "cells": "HeLa", "method": "trypan blue", "value": ">100 µM"}
{"smiles": "O=C(NCCc1ccc2c(n1)NCCC2)Nc1ccc(F)cc1", "cells": "PBMC", "value": "5.7 µM"}
{"smiles": "CCCC(=O)Nc1ccc2c(c1)Cc1cc(NC(N)=S)ccc1-2", "cells": "Ava5-EG(delta4AB)SEAP", "method": "MTS", "value": ">1 µM"}
{"smiles": "CCc1ccc(CCN=C2NC(=O)/C(=C/c3ccc(-c4ccc(C(=O)O)c(O)c4)o3)S2)cc1", "cells": "Ramos", "method": "MTT", "value": "37 µM"}
{"smiles": "CCC1(Cc2ccccc2)OS(=O)(=O)C=C1OCc1ccc(C(C)(C)C)cc1", "cells": "HEL fibroblasts", "value": ">200 µM"}
{"smiles": "COc1cnc(-n2ccc(C)n2)c2[nH]cc(C(=O)C(=O)N3CCN(C(=O)c4ccccc4)[C@H](C)C3)c12", "cells": "HeLa", "method": "trypan blue", "value": ">100 µM"}
{"smiles": "S=c1[nH]c2c(c(=S)[nH]1)C1=C(CCC/C1=C\\c1ccncc1)C(c1ccncc1)S2", "cells": "MCF-7", "method": "MTT", "value": "15.2 µM"}
{"smiles": "COc1cnc(-c2nccs2)c2[nH]cc(C(=O)C(=O)N3CCN(C(=O)c4ccccc4)CC3)c12", "cells": "HeLa", "method": "trypan blue", "value": ">100 µM"}
{"smiles": "O=C(NCCc1ccc2c(n1)NCCC2)Nc1ccc2c(cnn2Cc2ccccc2)c1", "cells": "PBMC", "value": "9.6 µM"}
{"smiles": "O=C1Cn2c(nc3c(c2=S)C2=C(CCC/C2=C\\c2ccncc2)C(c2ccncc2)S3)S1", "cells": "MCF-7", "method": "MTT", "value": "44.8 µM"}
{"smiles": "CCOC(=O)[C@@]1(C)CC[C@]2(C)CC[C@]3(C)C(=CC(=O)[C@@H]4[C@@]5(C)CC/C(=N\\OCc6cc(C)nn6C)C(C)(C)[C@@H]5CC[C@]43C)[C@@H]2C1", "cells": "K562", "method": "MTT", "value": "24.51 µM"}
{"smiles": "CCOC(=O)C1=C(CN2CC(F)(F)[C@@H]3[C@H]2CON3C[C@@H](O)[C@H](CC)C(=O)O)NC(c2nccs2)=N[C@H]1c1cccc(F)c1C", "cells": "HepG2.2.15", "method": "WST / absorbance", "value": "100 µM"}
{"smiles": "CCOC(=O)[C@@]1(C)CC[C@]2(C)CC[C@]3(C)C(=CC(=O)[C@@H]4[C@@]5(C)CC/C(=N\\OCc6cc(C)cc(C)c6)C(C)(C)[C@@H]5CC[C@]43C)[C@@H]2C1", "cells": "K562", "method": "MTT", "value": "66.16 µM"}
{"smiles": "NC(=S)Nc1ccc2c(c1)Cc1cc(N)ccc1-2", "cells": "Ava5-EG(delta4AB)SEAP", "method": "MTS", "value": ">1 µM"}
{"smiles": "CCOC(=O)C1=C(CN2CC(F)(F)[C@H]3[C@@H]2CCN3C[C@](C)(O)C(=O)O)NC(c2nccs2)=N[C@H]1c1cccc(F)c1F", "cells": "HepG2.2.15", "method": "WST / absorbance", "value": ">50 µM"}
{"smiles": "COC(=O)N[C@H](C(=O)N[C@H](CCC[C@@H](CO)N(CC(C)C)S(=O)(=O)c1ccc(N)cc1)C(C)C)C(c1ccccc1)c1ccccc1", "cells": "T lymphoid cells", "method": "microscopy", "value": "10 µM"}
{"smiles": "Clc1nnnc2c1C1=C(CCC/C1=C\\c1ccncc1)C(c1ccncc1)S2", "cells": "CNE-2", "method": "MTT", "value": "13.3 µM"}
{"smiles": "Cc1nc(N2CC[N+]3(CC2)CC[N+]2(CCNCC2)CC3)c([N+](=O)[O-])c(N2CC[N+]3(CC2)CC[N+]2(CCNCC2)CC3)n1", "cells": "L929", "value": ">228.7 µg/mL"}
{"smiles": "CCCCC(=O)OC1CC(OC(C)C(C)C(O)C(C)C(O)C(C)C2OC(=O)/C=C/CC(O)CC(O)CC(O)CCC(C)C(O)C[C@@]3(O)O[C@H](CC(O)CC(OC(=O)CC(=O)O)CCCC(O)C4OC4C2C)C[C@H](O)[C@H]3O)OC(C)C1O", "cells": "P815", "value": ">100 µg/mL"}
{"smiles": "NC(=S)Nc1cccc(OCCCCCOc2cccc(Nc3ccccc3)c2)c1", "cells": "Ava5-EG(delta4AB)SEAP", "method": "MTS", "value": ">1 µM"}
{"smiles": "CC[C@@H](CCC[C@@H](CO)N(C(C)C)S(=O)(=O)c1ccc(N)cc1)NC(=O)[C@@H](NC(=O)OC)C(c1ccccc1)c1ccccc1", "cells": "T lymphoid cells", "method": "microscopy", "value": ">10 µM"}
{"smiles": "CCOC(=O)C1=C(CN2CC(F)(F)[C@@H]3[C@H]2CON3C[C@H](OCC)C(C)(C)C(=O)O)NC(c2nccs2)=N[C@H]1c1cccc(F)c1C", "cells": "HepG2.2.15", "method": "WST / absorbance", "value": "50 µM"}
{"smiles": "COc1cnc(-c2noc(C)n2)c2[nH]cc(C(=O)C(=O)N3CCN(C(=O)c4ccccc4)CC3)c12", "cells": "HeLa", "method": "trypan blue", "value": ">100 µM"}
{"smiles": "O=C1/C(=C/c2ccc(-c3cc(C(F)(F)F)ccc3Cl)o2)SC(=S)N1Cc1ccc(F)cc1", "cells": "HEK 293", "method": "MTT", "value": "2.4 µM"}
{"smiles": "COC(=O)N[C@H](C(=O)N[C@H](CCC[C@@H](CO)N(CCC(C)C)S(=O)(=O)c1ccc(N)c(F)c1)C(C)C)C(c1ccccc1)c1ccccc1", "cells": "T lymphoid cells", "method": "microscopy", "value": ">10 µM"}
{"smiles": "Cc1ccccc1CNC(=O)NCCc1ccc2c(n1)NCCC2", "cells": "PBMC", "value": "50 µM"}
{"smiles": "NC(=O)c1[nH]c2c(c1N)C1=C(CCC/C1=C\\c1ccncc1)C(c1ccncc1)S2", "cells": "KB", "method": "MTT", "value": ">50 µM"}
{"smiles": "CCOc1cccnc1NC(=O)NCCc1ccc2c(n1)NCCC2", "cells": "PBMC", "value": "50 µM"}
{"smiles": "CCOC(=O)c1cnc(SC)nc1N1CC[N+]2(CC1)CC[N+]1(CCN(c3nc(SC)ncc3C(=O)OCC)CC1)CC2", "cells": "GMK", "value": ">290 µg/mL"}
{"smiles": "Cc1cccc(S(=O)(=O)NCCc2ccc3c(n2)NCCC3)c1", "cells": "PBMC", "value": "50 µM"}
{"smiles": "Nc1ccn(C[C@@H](CO)OCP(=O)(O)O)c(=O)n1", "cells": "HEL fibroblasts", "value": "74 µM"}
{"smiles": "O=[N+]([O-])c1c(Cl)nc(C(F)(F)F)nc1N1CC[N+]2(CC1)CC[N+]1(CCN(c3nc(C(F)(F)F)nc(Cl)c3[N+](=O)[O-])CC1)CC2", "cells": "GMK", "value": ">652.5 µg/mL"}
{"smiles": "CCOC(=O)[C@@]1(C)CC[C@]2(C)CC[C@]3(C)C(=CC(=O)[C@@H]4[C@@]5(C)CC/C(=N\\OCc6ccc(C#N)cc6)C(C)(C)[C@@H]5CC[C@]43C)[C@@H]2C1", "cells": "CT26", "method": "MTT", "value": ">100 µM"}
{"smiles": "Nc1c2c(nc(=O)n1-c1ccccc1)SC(c1ccncc1)C1=C2/C(=C/c2ccncc2)CCC1", "cells": "CNE-2", "method": "MTT", "value": "14.7 µM"}
{"smiles": "COC(=O)C1=C(CN2CC(F)(F)[C@@H]3[C@H]2CON3C[C@H](O)C(C)(C)C(=O)O)NC(c2nccs2)=N[C@H]1c1ccc(F)c(F)c1C", "cells": "HepG2.2.15", "method": "WST / absorbance", "value": "100 µM"}
{"smiles": "O=C(NCCc1cncc(-n2ccnc2)n1)Nc1cccc(F)c1", "cells": "PBMC", "value": "50 µM"}
{"smiles": "N=c1c2c(ncn1Nc1ccccc1)SC(c1ccncc1)C1=C2/C(=C/c2ccncc2)CCC1", "cells": "CNE-2", "method": "MTT", "value": "12.9 µM"}
{"smiles": "CCC1(Cc2ccccc2)OS(=O)(=O)C=C1OCc1ccccc1", "cells": "HEL fibroblasts", "value": ">200 µM"}
{"smiles": "Cc1ccc(/C=c2\\c(=O)sc3nc4c(c(=S)n23)C2=C(CCC/C2=C\\c2ccncc2)C(c2ccncc2)S4)cc1", "cells": "MGC-803", "method": "MTT", "value": "38.4 µM"}
{"smiles": "O=S(=O)(NCCc1ccc2c(n1)NCCC2)c1ccc(F)cc1", "cells": "PBMC", "value": "50 µM"}
{"smiles": "Cc1nc(N2CCCC2)c([N+](=O)[O-])c(N2CC[N+]3(CC2)CC[N+]2(CCN(c4nc(C)nc(N5CCCC5)c4[N+](=O)[O-])CC2)CC3)n1", "cells": "L929", "value": ">281.8 µg/mL"}
{"smiles": "C=C[C@@H](CCC[C@@H](CO)N(CCC(C)C)S(=O)(=O)c1ccc(CO)cc1)NC(=O)[C@@H](NC(=O)OC)C(c1ccccc1)c1ccccc1", "cells": "T lymphoid cells", "method": "microscopy", "value": ">10 µM"}
{"smiles": "O=C(NCCc1ccc2c(n1)NCCC2)Nc1cc(F)ccc1F", "cells": "PBMC", "value": "50 µM"}
{"smiles": "CCC[C@@H](CCC[C@@H](CO)N(CCC(C)C)S(=O)(=O)c1ccc(N)cc1)NC(=O)[C@@H](NC(=O)OC)C(c1ccccc1)c1ccccc1", "cells": "T lymphoid cells", "method": "microscopy", "value": ">10 µM"}
{"smiles": "CCCCCCCNC(=S)Nc1cccc(OCCCCCc2ccccc2)c1", "cells": "Ava5-EG(delta4AB)SEAP", "method": "MTS", "value": ">1 µM"}
{"smiles": "CC(C)(C)Oc1ccc(S(=O)(=O)NCCc2ccc3c(n2)NCCC3)cc1", "cells": "PBMC", "value": "4.9 µM"}
{"smiles": "CCOC(=O)[C@@]1(C)CC[C@]2(C)CC[C@]3(C)C(=CC(=O)[C@@H]4[C@@]5(C)CC/C(=N\\OCc6ccc(C)cc6)C(C)(C)[C@@H]5CC[C@]43C)[C@@H]2C1", "cells": "CT26", "method": "MTT", "value": "25.62 µM"}
{"smiles": "CCOC1N=C2C3=C(N=C(C)N2N1c1ccccc1)SC(c1ccncc1)C1=C3/C(=C/c2ccncc2)CCC1", "cells": "KB", "method": "MTT", "value": "12.2 µM"}
{"smiles": "COC(=O)C1=C(CN2CC(F)(F)[C@@H]3[C@H]2CON3C[C@@](C)(O)C(C)(C)C(=O)O)NC(c2nccs2)=N[C@H]1c1ccc(F)c(F)c1C", "cells": "HepG2.2.15", "method": "WST / absorbance", "value": ">3.13 µM"}
{"smiles": "CCOC(=O)[C@@]1(C)CC[C@]2(C)CC[C@]3(C)C(=CC(=O)[C@@H]4[C@@]5(C)CC/C(=N\\OCc6cccc(F)c6)C(C)(C)[C@@H]5CC[C@]43C)[C@@H]2C1", "cells": "CT26", "method": "MTT", "value": "8.69 µM"}
{"smiles": "CCC1(Cc2ccccc2)OS(=O)(=O)C=C1OCCc1ccccc1", "cells": "HEL fibroblasts", "value": "48 µM"}
{"smiles": "COC(=O)N[C@H](C(=O)N[C@@H](C)CCC[C@@H](CO)N(CC(C)C)S(=O)(=O)c1ccc(N)cc1)C(c1ccccc1)c1ccccc1", "cells": "T lymphoid cells", "method": "microscopy", "value": ">10 µM"}
{"smiles": "NC(=S)Nc1cccc(OCCCCCOc2ccc(-n3cccc3)cc2)c1", "cells": "Ava5-EG(delta4AB)SEAP", "method": "MTS", "value": ">1 µM"}
{"smiles": "CCOC(=O)C1=C(CN2CC(F)(F)[C@H]3[C@@H]2CCN3CC[C@](C)(O)C(=O)O)NC(c2nccs2)=N[C@H]1c1ccc(F)c(F)c1Cl", "cells": "HepG2.2.15", "method": "WST / absorbance", "value": "50 µM"}

The last 4 rows once more:

CCC1(Cc2ccccc2)OS(=O)(=O)C=C1OCCc1ccccc1 ; cells: HEL fibroblasts ; value: 48 µM
COC(=O)N[C@H](C(=O)N[C@@H](C)CCC[C@@H](CO)N(CC(C)C)S(=O)(=O)c1ccc(N)cc1)C(c1ccccc1)c1ccccc1 ; cells: T lymphoid cells ; method: microscopy ; value: >10 µM
NC(=S)Nc1cccc(OCCCCCOc2ccc(-n3cccc3)cc2)c1 ; cells: Ava5-EG(delta4AB)SEAP ; method: MTS ; value: >1 µM
CCOC(=O)C1=C(CN2CC(F)(F)[C@H]3[C@@H]2CCN3CC[C@](C)(O)C(=O)O)NC(c2nccs2)=N[C@H]1c1ccc(F)c(F)c1Cl ; cells: HepG2.2.15 ; method: WST / absorbance ; value: 50 µM